In patent publication US20260232713A1, “PLECOMACROLIDE DERIVATIVES FOR MHC-I NEF DOWNMODULATION” (priority 2022, published 2026):

Molecular target: HIV-Nef (Human immunodeficiency virus type 1, UniProt P03406)
Experiment: Inhibition of HIV-Nef downmodulation of MHC-I HLA-A2 on the surface of HIV ΔGPE infected primary CD4+ T cells (flow cytometry)
Format: cell-based
Settings: HLA-A2 surface expression, 24 hours after treatment

Row | Substance | IC50 [µM]
1 | Des-tylactone [Compound S47, reference compound] | > 1
2 | 23-OH-tylactone [Compound S46, reference compound] | > 1
